Laboratory results taken from patent US20200024330A1.

Tests used:
Test in all cases: cell-based or functional assay
[1] = target: HIV-1 Env of the clade AG pseudoviruses of the cross-clade 162-pseudovirus panel (n=10)
[2] = target: HIV-1 clade B pseudoviruses (Env) of the cross-clade 162-pseudovirus panel, n=31
[3] = target: HIV-1 clade C pseudoviruses (Env) of the cross-clade 162-pseudovirus panel, n=27
[4] = target: HIV-1 Env of all pseudoviruses of the cross-clade 162-pseudovirus panel (n=162)
[5] = target: HIV-1 clade AE pseudoviruses (Env) of the cross-clade 162-pseudovirus panel, n=10
[6] = target: HIV-1 clade A pseudoviruses (Env) of the cross-clade 162-pseudovirus panel, n=26
[7] = target: HIV-1 clade D pseudoviruses (Env) of the cross-clade 162-pseudovirus panel, n=25
[8] = target: HIV-1 clade G pseudoviruses (Env) of the cross-clade 162-pseudovirus panel, n=15
[9] = target: HIV-1 clade AG pseudoviruses (Env) of the cross-clade 162-pseudovirus panel, n=10
[10] = target: 162-pseudovirus panel representing all major circulating HIV-1 subtypes
[11] = target: HIV-1 clade F pseudoviruses (Env) of the cross-clade 162-pseudovirus panel, n=15
[12] = target: All HIV-1 pseudoviruses (Env) of the cross-clade 162-pseudovirus panel, n=162
[13] = target: HIV-1 Env of the clade G pseudoviruses of the cross-clade 162-pseudovirus panel (n=15)
[14] = target: HIV-1 Env of all pseudoviruses of the cross-clade 162-pseudovirus panel (n = 162)
[15] = target: HIV-1 Env of the clade AE pseudoviruses of the cross-clade 162-pseudovirus panel (n=10)
[16] = target: Env of the clade C HIV-1 pseudoviruses of the cross-clade 162-pseudovirus panel (n = 27)
[17] = target: Env of the clade B HIV-1 pseudoviruses of the cross-clade 162-pseudovirus panel (n = 31)
[18] = target: Env of all HIV-1 pseudoviruses of the cross-clade 162-pseudovirus panel (n = 162)
[19] = target: Env of the clade F HIV-1 pseudoviruses of the cross-clade 162-pseudovirus panel (n = 15)
[20] = target: Env of the clade D HIV-1 pseudoviruses of the cross-clade 162-pseudovirus panel (n = 25)
[21] = target: Env of the clade A HIV-1 pseudoviruses of the cross-clade 162-pseudovirus panel (n = 26)
[22] = target: Env of the clade AG HIV-1 pseudoviruses of the cross-clade 162-pseudovirus panel (n = 10)
[23] = target: Env of the clade G HIV-1 pseudoviruses of the cross-clade 162-pseudovirus panel (n = 15)

Binder	Median IC50 (µg/ml) against all viruses [1] [µg/mL]	Median IC50 (µg/ml) against viruses neutralized with an IC50 <50 µg/ml [2] [µg/mL]	Median IC50 (µg/ml) against viruses neutralized with an IC50 <50 µg/ml [3] [µg/mL]	Median IC50 (µg/ml) against all viruses [4] [µg/mL]	Median IC50 (µg/ml) against viruses neutralized with an IC50 <50 µg/ml [5] [µg/mL]	Median IC50 (µg/ml) against viruses neutralized with an IC50 <50 µg/ml [6] [µg/mL]	Median IC50 (µg/ml) against viruses neutralized with an IC50 <50 µg/ml [7] [µg/mL]	Median IC50 (µg/ml) against viruses neutralized with an IC50 <50 µg/ml [8] [µg/mL]	Median IC50 (µg/ml) against viruses neutralized with an IC50 <50 µg/ml [9] [µg/mL]	Percent viruses neutralized, IC50 <0.1 µg/ml [10] [%]	Percent viruses neutralized, IC50 <1 µg/ml [10] [%]	Percent viruses neutralized, IC50 <50 µg/ml [10] [%]	Median IC50 (µg/ml) against viruses neutralized with an IC50 <50 µg/ml [11] [µg/mL]	Median IC50 (µg/ml) against viruses neutralized with an IC50 <50 µg/ml [12] [µg/mL]	Median IC50 (µg/ml) against all viruses [13] [µg/mL]	Median IC50 against viruses neutralized with an IC50 <50 µg/ml [16] [µg/mL]	Median IC50 against viruses neutralized with an IC50 <50 µg/ml [17] [µg/mL]	Median IC50 against viruses neutralized with an IC50 <50 µg/ml [18] [µg/mL]	Median IC50 against viruses neutralized with an IC50 <50 µg/ml [19] [µg/mL]	Median IC50 against viruses neutralized with an IC50 <50 µg/ml [20] [µg/mL]	also measured
4995_E20 (PGT-142) (antibody, V domains shown) VH: QVQLVQSGPEVKKPGSSVKVSCKASGNTFSKYDVHWVRQATGQGLEWVGWISHERDKTESAQRFKGRVTFTRDTSATTAYMELRGLTSDDTAIYYCTRGSKHRLRDYVLYDDYGLINYQEWNDYLEFLDVWGHGTAVTVSS VL: DTVVTQSPLSLPVTPGEAASMSCSSTQSLRHSNGANYLAWYQHKPGQSPRLLIRLGSQRASGVPDRFSGSGSGTHFTLKISRVEAEDAAIYYCMQGLNRPWTFGKGTKLEIK	16.4	9.52	1.69	9.46	0.03	2.37	9.75	1.99	5.15	23	40	57	3.45	3.75	5.95	–	–	–	–	–	–
4980_N08 (PGT-143) (antibody, V domains shown) VH: QVQLEQSGAEVKKPGSSVKVSCKASGNTFSKYDVHWVRQATGQGLEWVGWMSHEGDKTESAQRFKGRVTFTRDTSASTAYMELRGLTSDDTAIYYCTRGSKHRLRDYVLYDDYGLINYQEWNDYLEFLDVWGHGTAVTVSS VL: DTVVTQSPLSLPVTPGEAASMSCTSTQSLRHSNGANYLAWYQHKPGQSPRLLIRLGSQRASGVPDRFSGSGSGTHFTLKISRVEPEDAAIYYCMQGLNRPWTFGKGTKLEIK	41.2	2.84	2.02	13.8	0.05	1.57	8.36	1.85	4.97	17	37	56	6.08	2.6	4.77	–	–	–	–	–	Percent viruses neutralized with an IC50 <50 µg/ml [14]: 58%
4995_P16 (PGT-145) (antibody, V domains shown) VH: QVQLVQSGAEVKKPGSSVKVSCKASGNSFSNHDVHWVRQATGQGLEWMGWMSHEGDKTGLAQKFQGRVTITRDSGASTVYMELRGLTADDTAIYYCLTGSKHRLRDYFLYNEYGPNYEEWGDYLATLDVWGHGTAVTVSS VL: EVVITQSPLFLPVTPGEAASLSCKCSHSLQHSTGANYLAWYLQRPGQTPRLLIHLATHRASGVPDRFSGSGSGTDFTLKISRVESDDVGTYYCMQGLHSPWTFGQGTKVEIK	1.27	0.54	1.76	0.88	11.1	4.3	5.27	2.18	0.87	27	52	78	9.74	2.1	0.21	–	–	–	–	–	Median IC50 (µg/ml) against all viruses [15]: 1.17 µg/mL
PGT-121 (antibody, V domains shown) VH: QMQLQESGPGLVKPSETLSLTCSVSGASISDSYWSWIRRSPGKGLEWIGYVHKSGDTNYSPSLKSRVNLSLDTSKNQVSLSLVAATAADSGKYYCARTLHGRRIYGIVAFNEWFTYFYMDVWGNGTQVTVSS VL: SDISVAPGETARISCGEKSLGSRAVQWYQHRAGQAPSLIIYNNQDRPSGIPERFSGSPDSPFGTTATLTITSVEAGDEADYYCHIWDSRVPTKWVFGGGTTLTVL	–	–	–	–	–	–	–	–	–	–	–	–	–	–	–	0.02	0.02	0.03	0.13	0.01	Median IC50 against viruses neutralized with an IC50 <50 µg/ml [21]: 0.02 µg/mL; Median IC50 against viruses neutralized with an IC50 <50 µg/ml [22]: 0.49 µg/mL; Median IC50 against viruses neutralized with an IC50 <50 µg/ml [23]: 0.02 µg/mL
PGT-122 (antibody, V domains shown) VH: QVHLQESGPGLVKPSETLSLTCNVSGTLVRDNYWSWIRQPLGKQPEWIGYVHDSGDTNYNPSLKSRVHLSLDKSKNLVSLRLTGVTAADSAIYYCATTKHGRRIYGVVAFKEWFTYFYMDVWGKGTSVTVSS VL: TFVSVAPGQTARITCGEESLGSRSVIWYQQRPGQAPSLIIYNNNDRPSGIPDRFSGSPGSTFGTTATLTITSVEAGDEADYYCHIWDSRRPTNWVFGEGTTLIVL	–	–	–	–	–	–	–	–	–	–	–	–	–	–	–	0.03	0.02	0.05	0.43	0.02	Median IC50 against viruses neutralized with an IC50 <50 µg/ml [21]: 0.07 µg/mL; Median IC50 against viruses neutralized with an IC50 <50 µg/ml [22]: 2.75 µg/mL; Median IC50 against viruses neutralized with an IC50 <50 µg/ml [23]: 0.05 µg/mL
